Anti-infective test results gathered from many reports (values: NIAID ChemDB through PubChem).

Common to all: cytotoxicity tests; cell line: MRC-5; endpoint: CC50

Conditions beyond the fields shown may differ between rows. An empty or dashed field is not shown. CCn is the concentration with n% toxicity to the cells.

compound | method | value
Nc1nc2c(ccn2[C@@H]2C[C@H](CO)[C@@H](O)[C@@H]2O)c(=O)[nH]1 |  | >100 µg/mL
CCOP(=O)(O)CCCCCCCOCn1cnc2c(=O)[nH]c(N)nc21 | visual reading | >2580 µM
CC(=O)Nc1cc(S(=O)(=O)O)cc2cc(S(=O)(=O)O)cc(O)c12 |  | >500 µM
CCOC(=O)C1=NN(c2ccc(Cl)cc2)C2C3N(c4ccc(Cl)cc4)N=C(C(=O)OCC)N3c3ccccc3N12 | resazurin | 48.5 µM
Nc1nc(N)c2ncn(COCCCP(=O)(O)O)c2n1 |  | 69 µM
O=c1[nH]c(=S)n([C@@H]2O[C@H](CO)[C@@H](O)[C@@H]2O)cc1CCO |  | >244.8 µM
Nc1nc2c(ncn2OCCCCP(=O)(O)O)c(=O)[nH]1 |  | >100 µg/mL
O=c1[nH]c(=O)n([C@@H]2O[C@H](CO)[C@@H](O)[C@@H]2F)cc1I |  | 9.3 µg/mL
CCOP(=O)(O)CCC(O)CCOCn1cnc2c(=O)[nH]c(N)nc21 | visual reading | >2000 µM
O=S1(=O)N=C(OCc2ccc(Cl)c(Cl)c2)c2ccccc2N1Cc1ccc(Cl)c(Cl)c1 |  | >48 µM
CC(C)CN1C(=O)c2ccccc2N(Cc2ccc(Cl)cc2)S1(=O)=O |  | 65.9 µM
Cc1cn([C@H]2C[C@H](N=C(N)N)[C@@H](CO)O2)c(=O)[nH]c1=O |  | >100 µM
O=C1c2ccccc2N(Cc2ccc(C(F)(F)F)cc2)S(=O)(=O)N1Cc1ccc(C(F)(F)F)cc1 |  | >48 µM
C[C@H]1[C@H](O)[C@@H](CO)O[C@H]1n1cc(I)c(=O)[nH]c1=O |  | 61.27 µg/mL
CN(C)CCC(NCCNc1ccnc2cc(Cl)ccc12)c1ccccc1 | fluorescence | 0.027 µM
O=c1[nH]c(=S)n([C@@H]2O[C@H](CO)[C@@H](O)[C@@H]2O)cc1/C=C/c1ccccc1 |  | >258.7 µM
Nc1nc2c(ncn2COCCO)c(=O)[nH]1 |  | 100 µg/mL
CCCCCCCCCCc1nccn(COCCO)c1=O | MTT | >100 µM
Nc1nc(=S)n([C@@H]2O[C@H](CO)[C@@H](O)[C@@H]2O)cc1CO |  | >253.5 µM
Nc1ccn(C[C@@H](CO)OCP(=O)(O)O)c(=O)n1 |  | 50 µg/mL
Nc1nc2c(ncn2COC(CO)CCP(=O)(O)O)c(=O)[nH]1 | visual reading | >3000 µM
CCc1cn([C@@H]2O[C@H](CO)[C@@H](O)[C@@H]2O)c(=S)[nH]c1=O |  | >264.9 µM
O=C1c2ccccc2N(Cc2ccc(Cl)c(Cl)c2)S(=O)(=O)N1Cc1ccc(Cl)c(Cl)c1 |  | >48 µM
O=C(O)/C=C/c1cn([C@@H]2O[C@H](CO)[C@@H](O)[C@@H]2O)c(=S)[nH]c1=O |  | >238.4 µM
CCCCCCCCCCCCCCCCOCCCOP(=O)(O)CCCOCn1cnc2c(N)nc(N)nc21 |  | 47 µM
Nc1nc2c(ncn2CCC(CO)CO)c(=O)[nH]1 |  | >300 µM
Nc1nc2c(ncn2COCCO)c(=O)[nH]1 |  | >1000 µM
Nc1nc2c(ncn2COC(CO)CO)c(=O)[nH]1 |  | >300 µM
Cc1cn([C@H]2C[C@H](N=C(N)NC#N)[C@@H](CO)O2)c(=O)[nH]c1=O |  | >100 µM
Nc1nc2c(ncn2COC(CO)CO)c(=O)[nH]1 |  | >1000 µM
CCCO/N=C/c1ccc(OCCCc2cc(C)no2)cc1 | visual reading | >1 µg/mL
Nc1nc(NC2CC2)c2ncn(COCCCP(=O)(O)O)c2n1 |  | >100 µM
Cc1ccc(CN2c3ccccc3C(OCc3ccccc3)=NS2(=O)=O)cc1 |  | >63 µM
CCc1cn([C@H]2C[C@H](O)[C@@H](CO)O2)c(=S)nc1N |  | >288.6 µM
CCCOC1=NS(=O)(=O)N(Cc2ccc(Cl)cc2)c2ccccc21 |  | 6.8 µM
C[C@H]1[C@H](O)[C@@H](CO)O[C@H]1n1cc(Br)c(N)nc1=O |  | >100 µg/mL
O=C(CCCCCCC(=O)Nc1cc(S(=O)(=O)O)cc2cc(S(=O)(=O)O)cc(O)c12)Nc1cc(S(=O)(=O)O)cc2cc(S(=O)(=O)O)cc(O)c12 |  | >500 µM
Fc1ccc2cc(-c3ccccc3)cn2c1 | MTT | >500 µM
Nc1nc2c(ncn2COCCCP(=O)([O-])O)c(=O)[nH]1 |  | 225 µM
Nc1nc2c(ncn2COC(COP(=O)(O)O)COP(=O)(O)O)c(=O)[nH]1 |  | >1000 µM
Cc1cc(CCCOc2c(C)cc(/C=N/OCc3ccccc3)cc2C)on1 | visual reading | 17 µg/mL
Cc1cc(C)n2cc(-c3ccccc3)cc2c1 | MTT | >500 µM
Cc1cn([C@H]2C[C@H](NC=O)[C@@H](CO)O2)c(=O)[nH]c1=O |  | >100 µM
CCN1C(=O)c2ccccc2N(Cc2ccc(Cl)c(Cl)c2)S1(=O)=O |  | 6.4 µM
C=CCO/N=C/c1cc(O)cc(OCCC2CCN(c3ccc(Cl)nn3)CC2)c1 | visual reading | >1 µg/mL
Cc1cn([C@@H]2O[C@H](CO)[C@@H](O)[C@@H]2O)c(=S)nc1N |  | >275.1 µM
Nc1nc2c(ncn2OCC(CO)CCP(=O)(O)O)c(=O)[nH]1 |  | >100 µg/mL
O=S(=O)(O)c1cc(O)c2c(NS(=O)(=O)c3ccc(-c4ccc(S(=O)(=O)Nc5cc(S(=O)(=O)O)cc6cc(S(=O)(=O)O)cc(O)c56)cc4)cc3)cc(S(=O)(=O)O)cc2c1 |  | >500 µM
Clc1ccc(-c2cc3ccccn3c2)cc1Cl | MTT | 391 µM
CC#Cc1cn([C@H]2C[C@H](O)[C@@H](CO)O2)c(=O)[nH]c1=O |  | >500 µM
CC(C)OC1=NS(=O)(=O)N(Cc2ccc(Cl)c(Cl)c2)c2ccccc21 |  | 2.5 µM
CCO/N=C/c1cccc(OCCC2CCN(c3ccc(Cl)nn3)CC2)c1 | visual reading | >1 µg/mL
CCOP(=O)(O)CCCOCn1cnc2c(=O)[nH]c(N)nc21 | visual reading | >3000 µM
Clc1cccn2cc(-c3ccccc3)cc12 | MTT | >500 µM
CC(O)c1cn([C@@H]2O[C@H](CO)[C@@H](O)[C@@H]2O)c(=S)[nH]c1=O |  | >263.5 µM

4 of the rows above, restated:

compound,method,value
Cc1cn([C@H]2C[C@H](N=C(N)N)[C@@H](CO)O2)c(=O)[nH]c1=O,,>100 µM
Cc1ccc(CN2c3ccccc3C(OCc3ccccc3)=NS2(=O)=O)cc1,,>63 µM
C=CCO/N=C/c1cc(O)cc(OCCC2CCN(c3ccc(Cl)nn3)CC2)c1,visual reading,>1 µg/mL
O=C(O)/C=C/c1cn([C@@H]2O[C@H](CO)[C@@H](O)[C@@H]2O)c(=S)[nH]c1=O,,>238.4 µM